This passage reports IC50 and EC50 results from patent US8178523B2, “Compounds for the treatment of hepatitis C” (Bristol-Myers Squibb Company, priority 2008, dated 2012).

Chains of the proteins cited; added tags and fusions are not shown. Residues count along the entry.
UniProt Q9WMX2, 2420-2992 limits assumed: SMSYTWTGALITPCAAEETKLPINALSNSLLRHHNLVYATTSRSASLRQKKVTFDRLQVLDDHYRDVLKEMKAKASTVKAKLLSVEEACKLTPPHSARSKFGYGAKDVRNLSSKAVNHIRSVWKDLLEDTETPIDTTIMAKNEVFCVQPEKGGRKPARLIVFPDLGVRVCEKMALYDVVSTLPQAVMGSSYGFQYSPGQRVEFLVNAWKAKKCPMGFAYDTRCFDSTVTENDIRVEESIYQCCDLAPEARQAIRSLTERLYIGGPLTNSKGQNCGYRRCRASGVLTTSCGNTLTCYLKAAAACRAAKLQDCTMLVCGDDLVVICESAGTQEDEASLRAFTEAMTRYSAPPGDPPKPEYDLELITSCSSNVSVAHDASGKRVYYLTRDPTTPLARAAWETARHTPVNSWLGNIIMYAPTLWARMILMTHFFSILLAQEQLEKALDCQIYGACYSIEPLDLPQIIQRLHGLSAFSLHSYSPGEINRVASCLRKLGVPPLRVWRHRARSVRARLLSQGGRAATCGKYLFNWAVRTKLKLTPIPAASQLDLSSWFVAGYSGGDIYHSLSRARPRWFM

For one test, the target named is HCV NS5B RdRp (Hepatitis C virus genotype 1b, UniProt Q9WMX2). As to the kind of experiment: HCV NS5B RdRp enzyme assay. To be noted: HCV NS5B genotype 1b; standard or modified RdRp assay not given; numeric values. In kind it is biochemical. On the procedure:
HCV NS5B RdRp cloning, expression, and purification. The cDNA encoding the NS5B protein of HCV, genotype 1b, was cloned into the pET21a expression vector. The protein was expressed with an 18 amino acid C-terminal truncation to enhance the solubility. The E. coli competent cell line BL21(DE3) was used for expression of the protein. Cultures were grown at 37° C. for ˜4 hours until the cultures reached an optical density of 2.0 at 600 nm. The cultures were cooled to 20° C. and induced with 1 mM […]. Fresh ampicillin was added to a final concentration of 50 μg/ml and the cells were grown overnight at 20° C.
Cell pellets (3 L) were lysed for purification to yield 15-24 mgs of purified NS5B. The lysis buffer consisted of 20 mM Tris-HCl, pH 7.4, 500 mM NaCl, 0.5% triton X-100, 1 mM DTT, 1 mM EDTA, 20% glycerol, 0.5 mg/ml lysozyme, 10 mM MgCl2, 15 ug/ml deoxyribonuclease I, and Complete TM protease inhibitor tablets (Roche). After addition of the lysis buffer, frozen cell pellets were resuspended using a tissue homogenizer. To reduce the viscosity of the sample, aliquots of the lysate were sonicated on ice using a microtip attached to a Branson sonicator. […]
Standard HCV NS5B RdRp enzyme assay. […] Plates were read on a Packard Top Count NXT after >1 hr incubation at room temperature. […]
IC50 values for compounds were determined using seven different [I]. […]

Another test deals with HCV replicon cells. As to the kind of experiment: HCV replicon FRET / luciferase assay. Type of test: cell-based. The conditions noted are these: 50% reduction in FRET or luciferase activity, numeric values. On the procedure:
FRET Assay Preparation. The HCV FRET screening assay was performed in 96-well cell culture plates. The FRET peptide (Anaspec, Inc.) (Taliani et al., Anal. Biochem. 1996, 240, 60-67) contains a fluorescence donor, EDANS, near one end of the peptide and an acceptor, DABCYL, near the other end. The fluorescence of the peptide is quenched by […] resonance energy transfer (RET) between the donor and the acceptor, but as the NS3 protease cleaves the peptide the products are released from RET quenching and the fluorescence of the donor becomes apparent. […]
Assays. […] After reading in a Cytoflour 4000 instrument (PE Biosystems), plates were rinsed with PBS and then used for FRET assay by the addition of 30 ul of the FRET peptide assay reagent described above (FRET Assay Preparation) per well. The plate was then placed into the Cytoflour 4000 instrument which had been set to 340 excite/490 emission, automatic mode for up to 20 cycles and the plate read in a kinetic mode. Typically, the signal to noise using an endpoint analysis after the reads was at least three-fold. Alternatively, after Alamar blue reading, plates were rinsed with PBS, then used for luciferase assay using the Promega Dual-Glo Luciferase Assay System or the Promega EnduRen Live Cell Substrate assay. […]

SMILES strings stand for the structures.

In the case of `COc1ccc2c(c1)C1CC1(C(=O)N1CCC(n3c(=O)[nH]c4ccccc43)CC1)Cn1c-2c(C2CCCCC2)c2ccc(C(=O)NS(=O)(=O)N(C)C)cc21` (centres unmarked), on HCV NS5B RdRp, the IC50 is 110 nM. The compound also gave an EC50 in the test with HCV replicon cells of 430 nM.
